# According to PubChem BioAssay AID602276 (University of Pittsburgh Molecular Library Screening Center, 2012):
# The list shows a part of the results, in another mix than the full data. Activity calls are given as the source filed them.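 The calls were made as follows: active = inhibition at or above 50% at 10 µM; inactive = inhibition below 50%.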
# Assay: blockers of RIG-like receptor reporter activation – cell-based, Sendai virus stimulus, luciferase, 10K MLSCN set, TLR/RLR signaling modifier project, primary screen (AID 602276);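 also: firefly luciferase from ISG56 promoter only with Renilla not read in this screen; 0% = Sendai virus plus DMSO and 100% = medium plus DMSO without virus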
# Details: HEK293 RL24 IRF3 luciferase reporter, at 10 µM, active compounds read high
row,Structure (SMILES),inhibition
1,Cc1ccc(C)c(NP(C)(=O)Oc2ccccc2)c1 (stereo not given),inactive: 16.2%
2,CP(=S)(Nn1cnnc1)Oc1ccccc1 (stereo not given),inactive: 1.28%
3,CP(=O)(Nc1ccccn1)Oc1ccccc1 (stereo not given),inactive: 10.4%
4,CN(C)CCOC(=O)C(O)(c1ccccc1)C1CCCCC1 (stereo not given),inactive: 0.631%
5,CP(=O)(Nc1ccc2c(c1)OCCO2)Oc1ccccc1 (stereo not given),inactive: 11.7%
